Results of unrelated studies side by side (data: NIAID ChemDB).

All rows: target-level tests; species: HIV-1; protein: Reverse transcriptase; read by: nucleotide incorporation / radiometric; measure: fold resistance

Blank or dashed fields: not listed here. Neighbouring rows are from separate reports. Fold resistance has wild type as its base. Two numbers with a dash give a range or band.

SMILES	mutations	strain or isolate	value
Cc1ccc(-n2c(SCC(=O)Nc3ccc(S(=O)(=O)NC(C(=O)O)C(C)C)cc3Cl)nnc2C(F)F)c2c1CCCC2	RT-Y181C	-	>2
CCCc1cc(=O)oc2c3c(c4c(c12)OC(C)(C)C=C4)O[C@H](C)C[C@@H]3O	RT-Y188H	-	12
NC(=O)c1[nH]c2ccc(Cl)cc2c1S(=O)(=O)c1ccccc1	RT-L100I	-	100
CCN1c2ncc(CCc3ccc(N(C)S(C)(=O)=O)cc3)cc2C(=O)N(C)c2ccc(Cl)nc21	RT-Y181C	-	0.86
CCc1ccc(-n2c(Br)nnc2SCC(=O)Nc2ccc(C(=O)NCCN3CCCC3)cc2Cl)c2ccccc12	RT-Y188L	-	>2
CCN1c2ncc(CCOc3ccc(C(=O)Nc4cccc(CC(=O)O)c4)cc3C)cc2C(=O)N(C)c2cccnc21	RT-K103N Y181C	IIIB	1
CCc1cc(C2CC2)ccc1-n1c(Br)nnc1SCC(=O)Nc1ccc(C(=O)O)cc1Cl	RT-Y188L	-	>2
CCN1c2ncc(CCOc3ccc(C(=O)O)c4c3CCN(S(C)(=O)=O)C4)cc2C(=O)N(C)c2cccnc21	RT-Y188L	-	1–10
CCN1c2ncc(CCOc3ccc(-c4cc[n+]([O-])c(C)c4)cc3C)cc2C(=O)N(C)c2cccnc21	RT-K103N Y181C	IIIB	1
Cc1cc(S(N)(=O)=O)ccc1NC(=O)CSc1nnc(Br)n1-c1ccc2c3c(cccc13)CC2	RT-Y188L	-	>2
CCc1ccc(-n2c(Br)nnc2SCC(=O)Nc2ccc(C(=O)O)cc2Br)c2ccccc12	RT-Y188L	-	>1
CCc1ccc(-n2c(C)nnc2SCC(=O)Nc2ccc(S(N)(=O)=O)cc2Cl)c2c1CCCC2	RT-Y188L	-	>2
CCN1c2ncc(CCOc3ccc(C(=O)Nc4ccc(CC(=O)O)cc4)cc3C)cc2C(=O)Nc2c(C)ccnc21	RT-K103N Y181C	IIIB	1
C=Cc1nc(SC)nc(N(C)C)c1Cl	RT-Y181I	-	>4.4
CCc1cc(C2CC2)ccc1-n1c(Br)nnc1SCC(=O)Nc1ccc(C(=O)O)cc1Cl	RT-Y181C	-	>1
CCCCNC(=O)c1ccc(NC(=O)CSc2nnc(Br)n2-c2ccc(CC)c3ccccc23)c(Cl)c1	RT-Y188L	-	>1
CCN1c2ncc(CCOc3cccc4c3CNC(=O)N4C)cc2C(=O)Nc2c(C)ccnc21	RT-K103N Y181C	IIIB	>2
CCN1c2ncc(CCOc3ccc(C(=O)N4CCC(C(=O)O)CC4)cc3C)cc2C(=O)N(C)c2cccnc21	RT-K103N Y181C	IIIB	>1
CCN1c2ncc(CCOc3cccc4c3CS(=O)(=O)N4CC(=O)OC(C)(C)C)cc2-c2nccn2-c2c(C)ccnc21	RT-K103N Y181C	-	>1
CCN1c2ncc(CCOc3cccc4c3CNC(=O)N4C)cc2C(=O)N(C)c2cccnc21	RT-K103N Y181C	IIIB	1
NS(=O)(=O)c1ccc(NC(=O)CSc2nnc(C(F)F)n2-c2ccc(C3CCCC3)c3ccccc23)c(Cl)c1	RT-Y188L	-	>2
CCN1c2ncc(CCOc3ccc(NS(=O)(=O)C(F)(F)F)c4ccccc34)cc2C(=O)N(C)c2ccc(F)nc21	RT-Y188L	-	>10
C=CCO/N=C/c1cc(NC(=S)c2ccoc2C)ccc1Cl	RT-V106A	-	3.33
CCN1c2ncc(CCOc3cccc4c3CN(C)C(=O)N4C)cc2-c2ncc(C)n2-c2cccnc21	RT-K103N Y181C	-	>2
CCN1c2ncc(C3(c4ccccc4)CO3)cc2C(=O)N(C)c2ccc(Cl)nc21	RT-Y181C	-	1
Cc1cc(C)cc(S(=O)(=O)c2c(C(=O)NCCO)[nH]c3ccc(Cl)cc23)c1	RT-Y181I	-	1340
COc1cccc2c(-n3c(Br)nnc3SCC(=O)Nc3ccc(C(=O)O)cc3Cl)cccc12	RT-Y188L	-	>2
CCN1c2ncc(CCOc3ccc(CCC(=O)O)c4c3CCCC4)cc2C(=O)N(C)c2ccc(Cl)nc21	RT-Y188L	-	1–10
NS(=O)(=O)c1ccc(NC(=O)CSc2nncn2-c2ccc(C3CC3)c3ccccc23)c(Cl)c1	RT-Y181C	-	>1
CCc1ccc(-n2c(Br)nnc2SCC(=O)Nc2ccc(C(=O)O)cc2Cl)c2ccccc12	RT-Y188L	-	>2
CCc1ccc(-n2c(SCC(=O)Nc3ccc(C(=O)O)cc3C)nnc2C(F)F)c2ccccc12	RT-Y188L	-	>2
CCN1c2ncc(CCOc3cccc4[nH]c(=O)n(C)c34)cc2C(=O)N(C)c2cccnc21	RT-K103N Y181C	IIIB	>1
CCOC(=O)C(C)NS(=O)(=O)c1ccc(NC(=O)CSc2nnc(C(F)F)n2-c2ccc(C)c3c2CCCC3)c(Cl)c1	RT-Y188L	-	>2
O=C(CSc1nnc(Br)n1-c1ccc(C2CCC2)c2ccccc12)Nc1ccc(C(=O)O)cc1Cl	RT-Y188L	-	>2
CCN1c2ncc(CCOc3ccc(-c4ccc(C(=O)O)cn4)cc3C)cc2C(=O)N(C)c2cccnc21	RT-K103N Y181C	IIIB	1
CCN1c2nc(C(F)(F)F)ccc2NC(=O)c2cc(CCOc3cc[n+]([O-])c4ccccc34)cnc21	RT-V106A	-	47
COC(=O)[C@H](CC(C)C)NC(=O)c1ccc(NC(=O)CSc2nnc(Br)n2-c2ccc(C3CC3)c3ccccc23)c(Cl)c1	RT-Y188L	-	>1
CCN1c2ncc(CCOc3cccc4c3COC(=O)N4)cc2-c2ncc(C)n2-c2cccnc21	RT-K103N Y181C	-	>2
Cc1cc(C)c2ccccc2c1-n1c(CF)nnc1SCC(=O)Nc1ccc(S(N)(=O)=O)cc1Cl	RT-Y188L	-	>2
Cc1cc(S(N)(=O)=O)ccc1NC(=O)COc1ccccc1C(=O)c1cc(Cl)cc(C#N)c1	RT-Y181C	NNRTI-resistant	0.7
Cc1cc(C(=O)O)ccc1NC(=O)CSc1nnc(C(F)F)n1-c1ccc(C)c2c1CCCC2	RT-Y188L	-	>2
Cc1occc1C(=S)Nc1ccc(Cl)c(C(=O)OCC2CC2)c1	RT-L108I	-	3.83
CCc1ccc(-n2c(Br)nnc2SCC(=O)Nc2ccc(S(N)(=O)=O)cc2Cl)c2ccccc12	RT-Y188L	-	>1
CCN1c2ncc(CCOc3ccc(C(C)CC(=O)O)c4ccccc34)cc2C(=O)N(C)c2cccnc21	RT-Y188L	-	>10
CCN1c2ncc(CCOc3cccc4c3C(C)C(=O)N4C)cc2C(=O)N(C)c2cccnc21	RT-K103N Y181C	IIIB	>1
CCN1c2ncc(CCOc3ccc(NS(C)(=O)=O)c4ccccc34)cc2C(=O)N(C)c2ccc(F)nc21	RT-K103N Y181C	-	1
CCN1c2ncc(CCOc3ccc(C(=O)O)c4ccccc34)cc2-c2ncc(C)n2-c2cccnc21	RT-K103N Y181C	-	>2
O=P(O)(O)OP(=O)(O)O	RT-D113E	-	2.3
C=Cc1cc(N(C)C)nc(SCc2ccc(OC)cc2)n1	RT-K103N	-	>1.23
CCN1c2ncc(CCOc3ccc(-c4ccc(C(=O)O)c(C)c4)cc3C)cc2C(=O)N(C)c2cccnc21	RT-K103N Y181C	IIIB	1
CCN1c2nc(Cl)ccc2NC(=O)c2cc(CCc3cccc(NS(C)(=O)=O)c3)cnc21	RT-Y181C	-	0.84
Cc1ccc(-n2c(C)nnc2SCC(=O)Nc2ccc(S(N)(=O)=O)cc2Cl)c2c1CCCC2	RT-Y181C	-	>1
CCN1c2ncc(CCOc3ccc(-c4cnccc4C)cc3C)cc2C(=O)N(C)c2cccnc21	RT-K103N Y181C	IIIB	1
Cc1cc(C)cc(S(=O)(=O)c2c(C(N)=O)[nH]c3ccc(F)c(F)c23)c1	RT-Y181I	-	681.8
Cc1ccc2c(C)cc(C)c(-n3c(SCC(=O)Nc4ccc(S(N)(=O)=O)cc4Cl)nnc3C(F)F)c2n1	RT-Y181C	-	>1

Repeating the final 3 entries:

SMILES	mutations	strain or isolate	value
CCN1c2ncc(CCOc3ccc(-c4cnccc4C)cc3C)cc2C(=O)N(C)c2cccnc21	RT-K103N Y181C	IIIB	1
Cc1cc(C)cc(S(=O)(=O)c2c(C(N)=O)[nH]c3ccc(F)c(F)c23)c1	RT-Y181I	-	681.8
Cc1ccc2c(C)cc(C)c(-n3c(SCC(=O)Nc4ccc(S(N)(=O)=O)cc4Cl)nnc3C(F)F)c2n1	RT-Y181C	-	>1